PubChem BioAssay AID504761 – Drosophila RNAi Screening Center – 2011
In all, the deposit lists about 22,000 reagents; this is an unselected part of those with a known target gene and a result. Of all reagents, 116 (0.52%) were called active. 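Calls depend on retest data that are not deposited; infection was ranked per plate without normalising between plates; the unit of the infection score is not given.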 A number with no mark means an inactive call. A plus sign joins genes that one reagent is predicted to hit. Not all columns of the deposit are shown. The record does not give: the amount of reagent, the time to read-out.

Purpose: 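Insect host genes that dengue virus relies on to spread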 (primary screen)
System: D.Mel-2 cells from Drosophila
Knock-down reagent: long dsRNA against Drosophila genes
Challenge: infection with dengue virus type 2; dose and infection time not stated
Measured: 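Cells stained for dengue envelope protein and imaged; percent of infected cells per well on duplicate plates, ranked by infection, with stained nuclei counted for cell number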
Scale: infection score: higher = more virus-infected cells
Hit rule: 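Very low infection ranking in both replicate wells (chance probability at most 0.065), then a retest showing infection dropped 1.5-fold or more at p below 0.05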
Calls: active = confirmed: knock-down lowers infection; inactive = not picked or not confirmed

Target gene,DRSC id,"infection score, replicate 1"
ZnT33D,DRSC02591,0.86 (active)
CG13040,DRSC09921,2.69
CG13040,DRSC28429,16.9
CG32551,DRSC19259,0.19
Gyg,DRSC03850,0.08
Gyg,DRSC04556,9.68
Gyg,DRSC28959,3.96
CG12395,DRSC19453,1.12
CG34426,DRSC09977,1.16
Hs2st,DRSC03348,12.1
cyp33 + CG34194,DRSC05666,2.13
RhoGEF3,DRSC08351,4.27
RhoGEF3,DRSC08352,1.14
CG34384,DRSC14855,1.19
CG34384,DRSC15444,5.24
CG34384,DRSC16575,6.19

Entries listed so far with an active call:
Target gene,DRSC id,"infection score, replicate 1"
ZnT33D,DRSC02591,0.86 (active)

The listing continues.
Target gene,DRSC id,"infection score, replicate 1"
AttD,DRSC16272,3.24
homer,DRSC03547,1.72
homer,DRSC29162,10.9
mRpS22,DRSC14488,4.69
mRpS22,DRSC28355,14.8
Osi21,DRSC02408,8.38
CG33189,DRSC21427,5.93
CG33189,DRSC25923,1.08
